# Results from PMC12153317 (2025).
# B1: S1V2-65 recombinant human IgG1 (antibody, V domains shown)
# VH: EVQLVQSGAEVKKPGETLKISCKGSGYSFTNYWIGWVRQMPGKGLECMGIIDPSDSETRYSPSFQGQVTISADKSTNTAFLQWSTVKASDTAIYYCARLGYGDSPPFDFWGQGAGVTVS
# VL: MTQSPLSLPVTPGESASISCRSSQSLLYSNGYNHLDWYVQKPGQPPQLLIFLGSTRASGVSDRVSGSGSGTDFTLQISRVEAEDVGVYYCMQALETPYTFGQGTKLEVK
# B2: S1V2-60 recombinant human IgG1 (antibody, V domains shown)
# VH: EVQLVQSGAEVSEPGKSLKISCKGSAYSFINYWIGWVRQMPGKGLECMGIIDPSDSETRYNPSFEGHVLISADTSINTAYLQWSSLRASDTAMYYCVRLGYGDSPPFDSWGQGTLVTVS
# VL: MTQSPFSLPVTPGEPASISCRSSQSLLYSNGYNHLDWYQQKPGQPPQLLIFLGSRRASGVPDRFSGSGSGTDFTLKISRVEAEDVGVYYCMQALQDPYTFGQGTKLEIK
# B3: FI6v3 recombinant human IgG (antibody, V domains shown)
# VH: QVQLVESGGGVVQPGRSLRLSCAASGFTFSTYAMHWVRQAPGKGLEWVAVISYDANYKYYADSVKGRFTISRDNSKNTLYLQMNSLRAEDTAVYYCAKDSQLRSLLYFEWLSQGYFDYWGQGTLVTVSS
# VL: DIVMTQSPDSLAVSLGERATINCKSSQSVTFNYKNYLAWYQQKPGQPPKLLIYWASTRESGVPDRFSGSGSGTDFTLTISSLQAEDVAVYYCQQHYRTPPTFGQGTKVEIK
# B4: S8V1-157 recombinant human IgG1 (antibody, V domains shown)
# VH: EVQLVQSGAEVKKPGASVKVSCKVSGYRLTALSMHWVRQAPGKGLEWMGGFDPEEDETIYAQNFQGRVTLTEDTSTDTVYMELSSLRSEDTGVYYCATLMGANPFDYWGQGTLIIVSG
# VL: not shown
# B5: S1V2-17 recombinant human IgG1 (antibody, V domains shown)
# VH: QVKLVQSGAEVKKPGASVKVSCKVSGYTLSELSIHWVRQVPGKGLESMGGFDPEDDGAIYAESFQGRVTMTEDTSTDTSFMELHSLRSEDTAVYYCVTWLVGTTVAAYWGQGTLVTVS
# VL: MTQTPFSLPVTPGEPASISCRSSQSLLYSNGYNHLDWYLQKPGQSPQLLIYLGSYRASGVPDRFSGSGSGTDFTLKISRVEADDVGVYYCMQALQAPRTFGQGTKVEIK
# Experiments:
# [1] = molecular target: T1, all seasonal H1s (1977–2019) assayed (soluble HA ectodomains, ELISA) (influenza A virus); assay: ELISA; A/USSR/90/1977 H1N1
# [2] = molecular target: T1, all seasonal H1s (1977–2019) assayed …; assay: ELISA; A/Chile/01/1983 H1N1
# [3] = molecular target: T2, several other HA subtypes within groups 1 and 2 (soluble HA ectodomains, ELISA) (influenza A virus); assay: ELISA; A/Taiwan/1/2017 H7N9
# [4] = molecular target: T1, all seasonal H1s (1977–2019) assayed …; assay: ELISA; A/Texas/36/1991 H1N1
# [5] = molecular target: T1, all seasonal H1s (1977–2019) assayed …; assay: ELISA; A/California/04/2009 H1N1
# [6] = molecular target: T2, several other HA subtypes within groups …; assay: ELISA; A/swine/Hong Kong/9/98 H9N2
# [7] = molecular target: T1, all seasonal H1s (1977–2019) assayed …; assay: ELISA; A/Solomon Islands/3/2006 H1N1
# [8] = molecular target: T1, all seasonal H1s (1977–2019) assayed …; assay: ELISA; A/Victoria/2570/2019(IVR-215) H1N1
# [9] = molecular target: T2, several other HA subtypes within groups …; assay: ELISA; A/mallard/Wisconsin/10OS3941/2010 H14N6
# [10] = molecular target: T2, several other HA subtypes within groups …; assay: ELISA; A/northern shoveler/California/HKWF1204/2007 H8N4
# [11] = molecular target: T2, several other HA subtypes within groups …; assay: ELISA; A/American black duck/New Brunswick/00464/2010 H4N6
# [12] = molecular target: T2, several other HA subtypes within groups …; assay: ELISA; A/wedge-tailed shearwater/Western Australia/2576/1979 H15N9
# [13] = molecular target: T3, all seasonal H3s (1968–2020) assayed (soluble HA ectodomains, ELISA) (influenza A virus); assay: ELISA; A/Sydney/05/1997 H3N2
# [14] = molecular target: T3, all seasonal H3s (1968–2020) assayed …; assay: ELISA; A/Wisconsin/67/2005 H3N2
# [15] = molecular target: T3, all seasonal H3s (1968–2020) assayed …; assay: ELISA; A/Aichi/02/1968(X31) H3N2
# [16] = molecular target: T3, all seasonal H3s (1968–2020) assayed …; assay: ELISA; A/Hong Kong/4801/2014 H3N2
# [17] = molecular target: T3, all seasonal H3s (1968–2020) assayed …; assay: ELISA; A/Philippines/02/1982 H3N2
# [18] = molecular target: T2, several other HA subtypes within groups …; assay: ELISA; A/turkey/Wisconsin/1/1966 H9N2
# [19] = molecular target: T3, all seasonal H3s (1968–2020) assayed …; assay: ELISA; A/Tasmania/503/2020(IVR-221) H3N2
# [20] = molecular target: T2, several other HA subtypes within groups …; assay: ELISA; A/black-headed gull/Sweden/2/99 H16N3
# [21] = molecular target: T4, specific HAs not engaged in ELISA (soluble HA ectodomains) (influenza virus); assay: ELISA; B/Brisbane/60/2008
# [22] = molecular target: T4, specific HAs not engaged in ELISA …; assay: ELISA; A/Taiwan/2/2013 H6N1
# [23] = molecular target: T4, specific HAs not engaged in ELISA …; assay: ELISA; A/duck/Memphis/546/1974 H11N9
Binder,Kd [1],Kd [2],Kd [3],Kd [4],Kd [5],Kd [6],Kd [7],Kd [8],Kd [9],Kd [10],Kd [11],Kd [12],Kd [13],Kd [14],Kd [15],Kd [16],Kd [17],Kd [18],Kd [19],Kd [20],further results
B1,2.2 nM,5.3 nM,0.12 nM,1 nM,1 nM,8 nM,4.1 nM,0.4 nM,0.3 nM,1.7 nM,0.2 nM,8 nM,,,,,,,,,
B2,1.2 nM,3.7 nM,0.13 nM,0.73 nM,0.86 nM,0.48 nM,3.5 nM,0.39 nM,0.26 nM,0.77 nM,0.17 nM,0.65 nM,0.27 nM,0.26 nM,0.16 nM,0.26 nM,0.25 nM,3.2 nM,0.28 nM,20 nM,
B3,0.32 nM,0.33 nM,0.24 nM,0.28 nM,0.42 nM,0.4 nM,0.67 nM,0.35 nM,1.4 nM,0.29 nM,1.4 nM,2.5 nM,3 nM,3.5 nM,0.31 nM,0.88 nM,1.2 nM,0.37 nM,2.8 nM,0.55 nM,Kd [21]: > 100 nM; Kd [22]: 0.47 nM; Kd [23]: 0.74 nM
B4,2.7 nM,8.1 nM,< 0.1 nM,1.2 nM,3.8 nM,26 nM,8.3 nM,2.1 nM,1.2 nM,4.5 nM,0.32 nM,6 nM,0.21 nM,0.42 nM,0.18 nM,0.49 nM,0.29 nM,,0.22 nM,,
B5,7 nM,13 nM,0.11 nM,2.9 nM,6.9 nM,13 nM,14 nM,2.8 nM,1.9 nM,9.2 nM,0.55 nM,61 nM,0.5 nM,0.99 nM,0.34 nM,0.85 nM,0.58 nM,,0.62 nM,,
